A mixed list of measured activities; the numbers were collected in NIAID ChemDB.

All rows: host cell toxicity; measure: CC50

An empty or dashed field is not shown.

structure	cell line	read by	setting	value
c1ccc2c(c1)CCc1ccccc1C2	HELA-H1	-	-	150 µM
O=c1[nH]cnc2c1ncn2[C@H]1CC[C@@H](CO)O1	U-937	-	-	392 µM
C=C(COCP(=O)(O)O)Cn1cnc2c(=O)[nH]c(N)nc21	F-PBMC	-	-	262 µM
Nc1nc2c(nnn2CCOCP(=O)(O)O)c(=O)[nH]1	HSB-2	-	-	45 µM
FC(F)(F)c1ccc2c(N3CCN(CCCNc4ccnc5cc(Cl)ccc45)CC3)ccnc2c1	Human foreskin fibroblasts	MTT / absorbance	-	1.27 µM
Nc1nc(N)c2ncn(CCOCP(=O)(O)O)c2n1	Primary duck hepatocytes	-	-	175 µg/mL
O=[N+]([O-])c1ccc(CNc2ncnc3c2ncn3[C@H]2CC[C@@H](CO)O2)cc1	Human fibroblasts	MTT	-	>5 µM
CC1=NN=C(C)C2C=C(Cl)C(Cl)=C12	MOUSE EMT6	-	-	16 µM
C(=N\Nc1nncs1)/c1cn(CC2CCC2)c2ccccc12	Fibroblast L929 cell line	MTT	24 h	>100 µg/mL
CCCCCCCCCCCCCCCCOP(=O)([O-])OCCC[n+]1ccccc1	MCF	MTT	-	50.4 µM
ClCN1CC[N+]2(CC1)CC[N+]1(CCN(CCl)CC1)CC2	K562	-	-	305.4 µg/mL
C[C@@H](CO)CCC[C@@H](C)[C@H]1[C@@H](O)C[C@H]2[C@@H]3CC=C4C[C@@H](O)CC[C@]4(C)[C@H]3CC[C@]12C	Vero cells	tetrazolium	-	>128 µM
CCCCCCCCCCCCCCCCOP(=O)([O-])OCC[N+](C)(C)Cc1ccccc1	HUVEC	MTT	-	>100 µM
Nc1ccn([C@H]2CC[C@@H](CO)O2)c(=O)n1	BFU-E	-	-	0.7 µM
COc1cc([C@@H]2c3cc4c(cc3[C@H](OC(C)=O)[C@@H]3COC(=O)[C@H]23)OCO4)cc(OC)c1O	HT-29	-	-	0.23 µM
C(=N\Nc1nncs1)/c1cn(CC2CCCCC2)c2ccccc12	Fibroblast L929 cell line	MTT	24 h	>100 µg/mL
CN(C(=O)Oc1ccc(Cl)cc1C(=O)Nc1ccc(F)cc1)c1ccccc1	HepG2 cell	MTT	-	512 µM
COc1cc([C@@H]2c3cc4c(cc3[C@H](OC(C)=O)[C@@H]3COC(=O)[C@@H]23)OCO4)cc2nc3ccccc3nc12	HT-29	-	-	1 µM
CCCCCCCCCCCCCCCCOP(=O)([O-])OCC[n+]1ccccc1	MCF	MTT	-	8.1 µM
N#Cc1cccc(Cn2cc(/C=N/Nc3nncs3)c3ccccc32)c1	Fibroblast L929 cell line	MTT	24 h	>100 µg/mL
O=C1N[C@H]([C@@H](O)CO)[C@H](O)[C@@H]1O	Karpas 45 cells	-	-	>300 µg/mL
Cc1cn([C@@H]2O[C@H](CO)[C@@H](O)[C@@H]2O)c(=O)[nH]c1=O	HELF	-	-	100 µg/mL
CN(C)C(=O)Oc1ccc(Cl)cc1C(=O)Nc1ccc(Cl)cc1	HepG2 cell	MTT	-	188.7 µM
CN[C@@H]1[C@H](O)[C@H](NC)[C@H]2O[C@@]3(O)C(=O)C[C@@H](C)O[C@H]3O[C@@H]2[C@H]1O	Vero and J774	-	-	>200 µg/mL
Oc1cc(O)c2c(c1)O[C@@H](c1ccc(O)c(O)c1)[C@H](O)C2	Huh-7/3-1	-	-	100.4 µg/mL
c1cc(CN2CCCNCCNCCCNCC2)ccc1CN1CCCNCCNCCCNCC1	HEK	-	-	>1 µM
COC(=O)CCCCCN1C[C@@H](O)[C@H](O)[C@H](O)[C@@H]1C	Karpas 45 cells	-	-	>250 µg/mL
COc1ccc(C/C=C/C=C/C(=O)NCC(C)C)cc1	J774 macrophages	MTT / absorbance	-	77.05 µg/mL
O=C(Nc1ccc(Br)cc1)c1cc(Cl)ccc1OC(=O)N(c1ccccc1)c1ccccc1	HepG2 cell	MTT	-	>100 µM
C[C@H](CCCC(C)(C)O)[C@H]1CC[C@H]2[C@@H]3[C@@H](O)C[C@H]4C[C@@H](O)CC[C@]4(C)[C@H]3CC[C@]12C	Vero cells	tetrazolium	-	>128 µM
CCCCOc1ccc(Nc2c[nH]c(=O)[nH]c2=O)cc1	A549 cells	MTT	-	>50 µg/mL
Cc1nc2ccccc2n1C1C[C@H]2CC[C@@H](C1)N2CC[C@H](NC(=O)C1CCOCC1)c1ccccc1	HEK	-	-	>1 µM
Cc1nc(N2CCC[N+]3(CC2)CC[N+]2(CCCN(c4nc(C)nc5c4no[n+]5[O-])CC2)CC3)c2c(no[n+]2[O-])n1	K562	-	-	>291.4 µg/mL
COC(=O)[C@@H]1[C@H](c2cc(OC)c3nc4cc(Cl)c(Cl)cc4nc3c2)c2cc3c(cc2C2=NOC[C@@H]21)OCO3	HT-29	-	-	>18 µM
Nc1nc2c(ncn2C[C@@H](CO)OCP(=O)(O)O)c(=O)[nH]1	HSB-2	-	-	122 µM
Nc1ncnc2c1ncn2CCCOCP(=O)(O)O	HB611	-	-	64 µM
COc1ccccc1N1CCN(CCCN2C(=O)CCC(c3ccccc3)C2=O)CC1	VERO 76	MTT	-	>100 µM
c1ccc2c(c1)oc1ccccc12	HELA-H1	-	-	>200 µM
Cc1cc(Cl)c([N+](=O)[O-])c(N2CC[N+]3(CC2)CC[N+]2(CCN(c4nc(C)cc(Cl)c4[N+](=O)[O-])CC2)CC3)n1	K562	-	-	>313.3 µg/mL
O=C(Nc1ncnc2c1ncn2[C@H]1CC[C@@H](CO)O1)c1ccccc1	Human fibroblasts	MTT	-	<5 µM
COC(=O)[C@H]1C2CON=C2c2cc3c(cc2[C@H]1c1cc(OC)c(OC)c(OC)c1)OCO3	P-388	-	-	2.3 µM
O=C1CCC(c2ccccc2)C(=O)N1CCCCN1CCN(c2ccc(F)cc2)CC1	VERO 76	MTT	-	92 µM
Nc1nc(SCc2ccccc2)c2ncn([C@H]3CC[C@@H](CO)O3)c2n1	Human fibroblasts	MTT	-	>5 µM
Oc1cc(O)c2c(c1)O[C@@]1(c3cc(O)c(O)c(O)c3)Oc3cc(O)c4c(c3[C@@H]2[C@H]1O)O[C@H](c1ccc(O)c(O)c1)[C@@H](O)C4	Huh-7/3-1	-	-	18.5 µg/mL
CCCCN1C[C@H](O)[C@@H](O)[C@H](O)[C@H]1CO	Karpas 45 cells	-	-	>500 µg/mL
CC1=NN=C(C)C2C=C([N+](=O)[O-])C(Cl)=C12	MOUSE EMT6	-	-	13.5 µM
NC(=O)c1[nH]nc([C@@H]2O[C@H](CO)[C@@H](O)[C@H]2O)c1O	Primary duck hepatocytes	-	-	25 µg/mL
Nc1ccn([C@H]2CC[C@@H](CO)O2)c(=O)n1	ATH8	-	-	35 µM
CS(=O)(=O)OCCCNc1ccnc2cc(C(F)(F)F)ccc12	Human foreskin fibroblasts	MTT / absorbance	-	5.67 µM
NNC(=O)c1ccncc1	HepG2 cells	MTT	-	>250 µM
Nc1ccn(C[C@H]2COP(=O)(O)CO2)c(=O)n1	HSB-2	-	-	109 µM
FC(F)(F)c1ccc2c(NCCCN3CCN(c4ccnc5cc(Cl)ccc45)CC3)ccnc2c1	Human foreskin fibroblasts	MTT / absorbance	-	2.1 µM
CN(C(=O)Oc1ccccc1C(=O)Nc1ccccc1)c1ccccc1	HepG2 cell	MTT	-	279.9 µM
O=c1[nH]c(=O)n([C@@H]2O[C@H](CO)[C@@H](O)[C@@H]2O)cc1/C=C/Br	HSB-2	-	-	>75 µM
O=c1ccn([C@H]2CC[C@@H](CO)O2)c(=O)[nH]1	ATH8	-	-	>500 µM
OC[C@@H]1CC[C@H](n2cnc3c(Cl)ncnc32)O1	BFU-E	-	-	2.9 µM
OC[C@@H](O)[C@H]1NC[C@H](O)[C@H]1O	Karpas 45 cells	-	-	>160 µg/mL
Nc1ncn([C@@H]2O[C@H](CO)[C@@H](O)[C@H]2O)c(=O)n1	Primary duck hepatocytes	-	-	75 µg/mL
O=C1CCC(c2ccccc2)C(=O)N1CCCN1CCN(c2ccccn2)CC1	VERO 76	MTT	-	>100 µM
CN(C)C(=S)Oc1ccccc1C(=O)Nc1ccccc1	HepG2 cell	MTT	-	>500 µM
Cc1nnc(C(C)C)n1C1C[C@H]2CC[C@@H](C1)N2CC[C@H](NC(=O)C1CCC(F)(F)CC1)c1ccccc1	PBMC (multiple donors)	MTS	-	>10 µM
Nc1ccn([C@H]2C=C[C@@H](CO)O2)c(=O)n1	ATH8	-	-	30 µM
O=[N+]([O-])c1c(N2CCCC2)ncnc1N1CC[N+]2(CC1)CC[N+]1(CCN(c3ncnc(N4CCCC4)c3[N+](=O)[O-])CC1)CC2	GMK	-	-	>733.6 µg/mL
Nc1nc2c(ncn2C[C@@H](CO)OCP(=O)(O)O)c(=O)[nH]1	HB611	-	-	>100 µM
O=C1C(=O)N(CN2CCN(c3ccnc4cc(C(F)(F)F)ccc34)CC2)c2cccc(Cl)c21	Human foreskin fibroblasts	MTT / absorbance	-	7.95 µM
CC1=C(C)[C@](CO)(c2ccccc2)C[C@H]1n1ccc(N)nc1=O	HEL 299	-	-	>100 µg/mL
Nc1ncnc2c1ncn2CCOCP(=O)(O)O	F-PBMC	-	-	24 µM
Cc1nc(Cl)c([N+](=O)[O-])c(N2CC[N+](C)(C)CC2)n1	K562	-	-	>483.6 µg/mL
Cc1ccc(Nc2cn(C3C=CC(O)C3)c(=O)n(C3C=CC(O)C3)c2=O)cc1	A549 cells	MTT	-	>50 µg/mL
CC(C)(C)CC(C)(C)c1ccc(OCCOP(=O)([O-])OCCC[N+](C)(C)Cc2ccccc2)cc1	HUVEC	MTT	-	>100 µM
CC1=C(C)C(CO)(CO)C[C@H]1n1ccc(N)nc1=O	HEL 299	-	-	>100 µg/mL
Nc1nc2c(ncn2[C@@H]2C[C@H](CO)[C@H]2CO)c(=O)[nH]1	HSB-2	-	-	37 µM
Nc1nc2c(ncn2CCOCP(=O)(O)O)c(=O)[nH]1	HB611	-	-	6.3 µM
O=c1[nH]cnc(N2CC[N+]3(CC2)CC[N+]2(CCN(c4nc[nH]c(=O)c4[N+](=O)[O-])CC2)CC3)c1[N+](=O)[O-]	GMK	-	-	>869 µg/mL
Cc1ccc(Nc2c[nH]c(=O)[nH]c2=O)cc1	A549 cells	MTT	-	>50 µg/mL
Nc1ncnc2c1ncn2[C@H]1CC[C@@H](CO)O1	Primary duck hepatocytes	-	-	>200 µg/mL
Nc1nccc2c1ncn2[C@@H]1O[C@H](CO)[C@@H](O)[C@H]1O	PRK	-	-	>400 µg/mL
Nc1nc2c(ncn2CC[C@@H](O)CO)c(=O)[nH]1	HSB-2	-	-	277 µM
O=c1ccn([C@@H]2CC[C@H](CO)O2)c(=O)[nH]1	Primary duck hepatocytes	-	-	200 µg/mL
Nc1nc(N)c2ncn([C@H]3CC[C@@H](CO)O3)c2n1	GM-CFC	-	-	>500 µM
Nc1ncnc2c1ncn2C[C@@H](CF)OCP(=O)(O)O	HSB-2	-	-	>300 µM
CC(C)CCC[C@@H](C)[C@H]1CC[C@H]2[C@@H]3CC(=O)[C@H]4C[C@@H](O)CC[C@]4(C)[C@H]3CC[C@]12C	Vero cells	tetrazolium	-	92 µM
O=c1[nH]cnc2c1ncn2[C@H]1CC[C@@H](CO)O1	HELA-CD4+	-	-	1.8 µM
C[N+]1(C)CCN(c2ncnc(Cl)c2[N+](=O)[O-])CC1	K562	-	-	>500.5 µg/mL
O=C1CCC(c2ccccc2)C(=O)N1CCCCN1CCN(c2ccccc2O)CC1	VERO 76	MTT	-	>100 µM
O=C(O)[C@H]1NC[C@@H](O)[C@@H]1O	Karpas 45 cells	-	-	>150 µg/mL
CC(=O)O[C@H]1CC[C@@]2(C)[C@@H](CC(=O)[C@@H]3[C@@H]2CC[C@]2(C)[C@@H]([C@H](C)CCCC(C)C)CC[C@@H]32)C1	Vero cells	tetrazolium	-	>128 µM
Cc1cccc(Nc2c[nH]c(=O)[nH]c2=O)c1	A549 cells	MTT	-	>50 µg/mL
Cn1cc(/C=N/Nc2nncs2)c2ccccc21	Fibroblast L929 cell line	MTT	24 h	>100 µg/mL
OC1c2ccccc2CCc2ccccc21	HELA-H1	-	-	150 µM
C[C@H](CCCC(C)(C)O)[C@H]1CC[C@H]2[C@@H]3CC=C4C[C@@H](O)CC[C@]4(C)[C@H]3CC[C@]12C	Vero cells	tetrazolium	-	>128 µM
Nc1nc2c(ncn2/C=C2/CC2(CO)CO)c(=O)[nH]1	HeLaP4	-	-	0.047 µM
Nc1nccc2c1ncn2C[C@@H](CO)OCP(=O)(O)O	HB611	-	-	32 µM
OC[C@H]1NC[C@@H](O)[C@@H]1O	Karpas 45 cells	-	-	>170 µg/mL
Nc1ncnc2c1ncn2[C@H]1C=C[C@@H](CO)O1	ATH8	-	-	75 µM
CC(C)CCC[C@@H](C)[C@H]1CC[C@H]2[C@@H]3[C@H](F)[C@@H](O)[C@H]4C[C@@H](O)CC[C@]4(C)[C@H]3CC[C@]12C	Vero cells	tetrazolium	-	41 µM

Repeating the first 14 entries:

structure | cell line | read by | setting | value
c1ccc2c(c1)CCc1ccccc1C2 | HELA-H1 | - | - | 150 µM
O=c1[nH]cnc2c1ncn2[C@H]1CC[C@@H](CO)O1 | U-937 | - | - | 392 µM
C=C(COCP(=O)(O)O)Cn1cnc2c(=O)[nH]c(N)nc21 | F-PBMC | - | - | 262 µM
Nc1nc2c(nnn2CCOCP(=O)(O)O)c(=O)[nH]1 | HSB-2 | - | - | 45 µM
FC(F)(F)c1ccc2c(N3CCN(CCCNc4ccnc5cc(Cl)ccc45)CC3)ccnc2c1 | Human foreskin fibroblasts | MTT / absorbance | - | 1.27 µM
Nc1nc(N)c2ncn(CCOCP(=O)(O)O)c2n1 | Primary duck hepatocytes | - | - | 175 µg/mL
O=[N+]([O-])c1ccc(CNc2ncnc3c2ncn3[C@H]2CC[C@@H](CO)O2)cc1 | Human fibroblasts | MTT | - | >5 µM
CC1=NN=C(C)C2C=C(Cl)C(Cl)=C12 | MOUSE EMT6 | - | - | 16 µM
C(=N\Nc1nncs1)/c1cn(CC2CCC2)c2ccccc12 | Fibroblast L929 cell line | MTT | 24 h | >100 µg/mL
CCCCCCCCCCCCCCCCOP(=O)([O-])OCCC[n+]1ccccc1 | MCF | MTT | - | 50.4 µM
ClCN1CC[N+]2(CC1)CC[N+]1(CCN(CCl)CC1)CC2 | K562 | - | - | 305.4 µg/mL
C[C@@H](CO)CCC[C@@H](C)[C@H]1[C@@H](O)C[C@H]2[C@@H]3CC=C4C[C@@H](O)CC[C@]4(C)[C@H]3CC[C@]12C | Vero cells | tetrazolium | - | >128 µM
CCCCCCCCCCCCCCCCOP(=O)([O-])OCC[N+](C)(C)Cc1ccccc1 | HUVEC | MTT | - | >100 µM
Nc1ccn([C@H]2CC[C@@H](CO)O2)c(=O)n1 | BFU-E | - | - | 0.7 µM

CCn: concentration that lowers growth or viability of the cells by n%. Lines come from different laboratories, so protocols vary.